Measured values from several laboratories, pooled; numbers as filed in NIAID ChemDB.

Shared fields: whole-cell or culture tests; species: Candida tropicalis

Blank or dashed fields: not listed here. MIC50, MIC90 and the like: level of inhibition, or share of isolates inhibited. ECn: concentration that inhibits the pathogen or its effect by n%. Rows are shuffled and stem from different studies.

smiles | conditions | cells | read by | strain | endpoint | result
CC1C(=O)N(CCc2ccccc2)C(=O)C1C |  |  | broth dilution / turbidity | CCC 131-2000 | MIC | 125 µg/mL
C=CCc1ccc(OC)c(OC)c1 |  |  | turbidity | 3079 | MIC90 | 340 µg/mL
CC(=O)O[C@@H]1C(=O)N(c2ccc(C(=O)O)cc2)[C@H]1c1ccc2c(c1)OCO2 |  |  |  | CP/K92 | MIC | 135.5 µM
C[C@@H]1CC(=O)N(c2ccc(Br)cc2)C1=O |  |  | broth dilution / turbidity | CCC 131-2000 | MIC | 62.5 µg/mL
CCC(C)n1ncn(-c2ccc(N3CCN(c4ccc(OC[C@H]5CO[C@](Cn6cncn6)(c6ccc(Cl)cc6Cl)O5)cc4)CC3)cc2)c1=O |  |  |  | 10 isolates | MIC50 | 0.2 µg/mL
O=C(CCn1ccnc1)c1cccc2ccccc12 |  |  | broth dilution | RTCC 1095 | MIC | 64 µg/mL
c1ccc(-c2ccc(CNC(Cn3ccnc3)c3ccccc3)cc2)cc1 |  |  |  | CBS 94 CA 44 CA 38 | MIC | 1.9 µg/mL
CS(=O)(=O)OC1C(=O)N(c2ccccc2)C1c1ccccc1 |  |  |  | CP/K92 | MIC | 9.46 µM
CC1C(=O)N(CCCc2ccccc2)C(=O)C1C |  |  | broth dilution / turbidity | CCC 131-2000 | MIC | 125 µg/mL
O=C1C2=C(OC(CI)C2)C(=O)c2ccccc21 |  |  | broth dilution | Clinical isolate | MIC | 37.3 µg/mL
Clc1ccc(C(Cn2ccnc2)NC/C=C/c2ccccc2)cc1 |  |  |  | CBS 94 CA 44 CA 37 | MIC | 50 µg/mL
C[C@@H]1C(=O)N(CCc2ccccc2)C(=O)[C@@H]1C |  |  | broth dilution / turbidity | CCC 131-2000 | MIC | 125 µg/mL
O=C(CCn1ccnc1)c1ccc(-c2ccccc2)cc1 |  |  | broth dilution | RTCC 1095 | MIC | >64 µg/mL
CC[C@@H]([C@H](C)O)n1ncn(-c2ccc(N3CCN(c4ccc(OC[C@@H]5CO[C@@](Cn6cncn6)(c6ccc(F)cc6F)C5)cc4)CC3)cc2)c1=O |  |  | broth dilution | 8664 | MIC | 0.03 µg/mL
Clc1ccc(C(Cn2ccnc2)OCc2csc3c(Cl)cccc23)c(Cl)c1 | 48 h |  |  | 65 isolates | MIC | >8 µg/mL
CC(=O)OC1C(=O)N(c2ccccc2)C1c1ccccc1 |  |  |  | CP/K92 | MIC | 88.96 µM
C[C@@H]1CC(=O)N(CCCc2ccccc2)C1=O |  |  | broth dilution / turbidity | CCC 131-2000 | MIC | 125 µg/mL
C[C@H]1[C@H](O)[C@@H](C)/C=C/C=C/C=C/C=C/C=C/C=C/C=C/[C@H](O[C@@H]2O[C@H](C)[C@@H](O)[C@H](N)[C@@H]2O)C[C@@H]2O[C@](O)(C[C@@H](O)C[C@@H](O)CC[C@H](O)[C@@H](O)C[C@@H](O)CC(=O)O[C@H]1C)C[C@H](O)[C@H]2C(=O)O |  |  |  | 10 isolates | MIC90 | 0.4 µg/mL
c1ccc(C(Cn2ccnc2)NCc2cccc3ccccc23)cc1 |  |  |  | CBS 94 CA 44 CA 44 | MIC | 37.7 µg/mL
O=C(CCn1ccnc1)c1cccc(C(O)c2ccc(Cl)c(Cl)c2)c1 |  |  | broth dilution | RTCC 1065 | MIC | 64 µg/mL
Clc1ccc(C(Cn2ccnc2)NCc2cccc3ccccc23)cc1 |  | VERO |  | CBS 94 CA 44 CA 14 | EC50 | 12 µg/mL
C[C@@H](c1ncncc1F)[C@](O)(Cn1cncn1)c1ccc(F)cc1F |  |  | broth dilution | 8662 | MIC | 0.015 µg/mL
Fc1ccc(C(Cn2ccnc2)NCc2ccc(-c3ccccc3)cc2)cc1 |  |  |  | CBS 94 CA 44 CA 40 | MIC | 3.8 µg/mL
COC(=O)c1ccc(N2C(=O)C(OC(C)=O)C2c2ccc(C)cc2)cc1 |  |  |  | CP/K92 | MIC | 35.41 µM
O=C(CCn1ccnc1)c1cccc(O)c1 |  |  | broth dilution | RTCC 1095 | MIC | >64 µg/mL

Again, the opening 4 rows:

{"smiles": "CC1C(=O)N(CCc2ccccc2)C(=O)C1C", "read by": "broth dilution / turbidity", "strain": "CCC 131-2000", "endpoint": "MIC", "result": "125 µg/mL"}
{"smiles": "C=CCc1ccc(OC)c(OC)c1", "read by": "turbidity", "strain": "3079", "endpoint": "MIC90", "result": "340 µg/mL"}
{"smiles": "CC(=O)O[C@@H]1C(=O)N(c2ccc(C(=O)O)cc2)[C@H]1c1ccc2c(c1)OCO2", "strain": "CP/K92", "endpoint": "MIC", "result": "135.5 µM"}
{"smiles": "C[C@@H]1CC(=O)N(c2ccc(Br)cc2)C1=O", "read by": "broth dilution / turbidity", "strain": "CCC 131-2000", "endpoint": "MIC", "result": "62.5 µg/mL"}